Measured values from paper PMC8443647, “Hybrid derivative of cathelicidin and human beta defensin-2 against Gram-positive bacteria: A novel approach for the treatment of bacterial keratitis” (Scientific Reports, 2021).
Read-outs that look alike come from different tables or passages of the source. Peptide text beside a SMILES is read from it.

Tests used:
[1] = system: P. aeruginosa PAO1-L; assay type: cell-based
Excerpt: (§1) A range of Gram-positive and Gram-negative laboratory- and clinical-strain bacteria were used for the experiments. These included laboratory-strain methicillin-sensitive S. aureus (MSSA; including SH1000 and ATCC SA29213), laboratory-strain MRSA (ATCC MRSA43300), clinical-strain MRSA (MRSA-OS; an IK isolate), laboratory-strain methicillin-sensitive Staphylococcus epidermidis (MSSE; ATCC SE12228), laboratory invasive-strain P. aeruginosa (PAO1-L), and clinical cytotoxic-strain P. aeruginosa (PA-OS; an IK isolate).
(§2) In vitro antimicrobial efficacy of the antibiotics and designed HDPs was determined using an established MIC assay with broth microdilution method approved by the Clinical and Laboratory Standards Institute (CLSI)[64]. Briefly, the microorganisms were cultured on Tryptone Soya Agar (TSA) and incubated overnight for 18–21 h at 37 °C. Bacterial inoculums were subsequently prepared using the direct colony suspension method. Three to five bacterial colonies were obtained from the agar plate and inoculated into an Eppendorf tube containing 1 ml of cation-adjusted Muller-Hinton broth (caMHB), consisting of 20–25 mg/L calcium ions (Ca^2+) and 10–12.5 mg/L magnesium ions (Mg^2+). The bacterial suspension was adjusted to achieve a turbidity equivalent to 0.1 OD600 or 0.5 MacFarland, containing ~ 1.5 × 10^8 colony-forming unit (CFU)/ml, which was then further diluted in 1:150 in caMHB to reach a final bacterial concentration of ~ 1 × 10^6 colony forming units (CFU)/ml. Each treatment (peptide or antibiotic) was prepared in 1:2 serial dilution in 96-well polypropylene microplates (with a final treatment volume of 50 μl per well), followed by the addition of 50 μl of 1 × 10^6 CFU/ml bacteria into each well (with a final bacterial concentration of 5 × 10^5 CFU/ml).

[2] = system: P. aeruginosa PA-OS; assay type: cell-based
Excerpt: as §1, §2

[3] = system: S. epidermidis ATCC 12228; assay type: cell-based, Staphylococcus epidermidis
Excerpt: as §1, §2

[4] = system: S. aureus ATCC 29213; assay type: cell-based, Staphylococcus aureus
Excerpt: as §1, §2

[5] = system: MRSA ATCC 43300; assay type: cell-based, Staphylococcus aureus
Excerpt: as §1, §2

[6] = system: S. aureus SH1000; assay type: cell-based, Staphylococcus aureus
Excerpt: as §1, §2

[7] = system: MRSA-OS; assay type: cell-based, Staphylococcus aureus
Excerpt: as §1, §2

[8] = based on HC50 (hemolysis) divided by MIC without salt
[9] = based on IC50 (HCE-2 cell viability) divided by MIC without salt
[10] = based on LC50 (HCE-2) divided by MIC without salt

For `CC[C@H](C)[C@H](NC(=O)[C@H](CCCNC(=N)N)NC(=O)[C@H](CCC(N)=O)NC(=O)[C@@H](NC(=O)[C@@H](NC(=O)[C@H](CCCNC(=N)N)NC(=O)[C@@H](N)CCCCN)[C@@H](C)CC)C(C)C)C(=O)N[C@@H](CCCCN)C(=O)N[C@@H](CC(=O)O)C(=O)N[C@@H](Cc1c[nH]c2ccccc12)C(=O)N[C@@H](CC(C)C)C(=O)N[C@@H](CCCNC(=N)N)C(=O)N[C@@H](CCCCN)C(=O)N[C@@H](CC(C)C)C(=O)N[C@@H](CS)C(=O)N[C@@H](CCCCN)C(=O)N[C@@H](CCCCN)C(=O)N[C@@H](Cc1c[nH]c2ccccc12)C(=O)O` [CaD23, KRIVQRIKDW LRKLCKKW] (H-KRIVQRIKDWLRKLCKKW-OH; N-terminus and C-terminus assumed), the “Therapeutic index (TI)” value [1, 8] was over 4, the “Therapeutic index (TI)” value [1, 9] was 1.1 and the “Therapeutic index (TI)” value [1, 10] was over 4. For the same molecule, the “Therapeutic index (TI)” value [2, 8] was over 8, the “Therapeutic index (TI)” value [2, 9] was 2.2 and the “Therapeutic index (TI)” value [2, 10] was over 8. For the same molecule, the “Therapeutic index (TI)” value [3, 8] was over 16, the “Therapeutic index (TI)” value [3, 9] was 4.4 and the “Therapeutic index (TI)” value [3, 10] was over 16. For the same molecule, the “Therapeutic index (TI)” value [4, 8] was over 8, the “Therapeutic index (TI)” value [4, 9] was 2.2 and the “Therapeutic index (TI)” value [4, 10] was over 8. The “Therapeutic index (TI)” value [5, 8] was over 4, the “Therapeutic index (TI)” value [5, 9] was 1.1 and the “Therapeutic index (TI)” value [5, 10] was over 4. The “Therapeutic index (TI)” value [6, 8] was over 16, the “Therapeutic index (TI)” value [6, 9] was 4.4 and the “Therapeutic index (TI)” value [6, 10] was over 16. For the same molecule, the “Therapeutic index (TI)” value [7, 8] was over 8, the “Therapeutic index (TI)” value [7, 9] was 2.2 and the “Therapeutic index (TI)” value [7, 10] was over 8.
